Anti-infective test results gathered from many reports (values: NIAID ChemDB through PubChem).

Common to all: cytotoxicity tests; cells: JM; measure: CC50

An empty or dashed field is not shown. Conditions beyond the fields shown may differ between rows. CCn: concentration that lowers growth or viability of the cells by n%.

structure	read by	value
COC(=O)[C@H](C)NP(=O)(OC[C@H]1O[C@@H](n2cc(C)c(=O)[nH]c2=O)C[C@@H]1N=[N+]=[N-])OCC(Cl)(Cl)Cl	-	50 µM
O=C(O)P(=O)(O)O	MTT	1000 µg/mL
CC(C)(C)NC(=O)[C@@H]1C[C@@H]2CCCC[C@@H]2CN1C[C@@H](O)[C@H](Cc1ccccc1)NC(=O)[C@H](CC(N)=O)NC(=O)c1ccc2ccccc2n1	-	>10 µM
Nc1ccn([C@H]2CC[C@@H](CO)O2)c(=O)n1	-	28 µM
Cc1cn([C@H]2C[C@H](N=[N+]=[N-])[C@@H](COP(=O)(OCc3ccccc3)OCc3ccccc3)O2)c(=O)[nH]c1=O	MTT	200 µM
OC[C@H]1N[C@H](CO)[C@@H](O)[C@@H]1O	MTT	>1000 µg/mL
Nc1ccn([C@H]2CC[C@@H](CO)O2)c(=O)n1	-	7 µM
Cc1cn([C@H]2C[C@H](N=[N+]=[N-])[C@@H](COP(=O)(O)O)O2)c(=O)[nH]c1=O	MTT	100 µM
Nc1ncnc2c1ncn2[C@H]1CC[C@@H](CO)O1	-	>1000 µM
Cc1cn([C@H]2C[C@H](N=[N+]=[N-])[C@@H](COP(=O)(OCc3ccc(C(=O)OC(C)C)cc3)OCc3ccc(C(=O)OC(C)C)cc3)O2)c(=O)[nH]c1=O	MTT	300 µM
Cc1cn([C@H]2C[C@H](N=[N+]=[N-])[C@@H](CO)O2)c(=O)[nH]c1=O	-	>1000 µM
CC(C)(C)OC(=O)[C@@H]1CCCN1C[C@@H](O)[C@H](Cc1ccccc1)NC(=O)[C@H](CC(N)=O)NC(=O)OCc1ccccc1	MTT	250 µg/mL
Cc1cn([C@H]2C[C@H](N=[N+]=[N-])[C@@H](COP(=O)(Oc3ccc([N+](=O)[O-])cc3)Oc3ccc([N+](=O)[O-])cc3)O2)c(=O)[nH]c1=O	-	20 µM
Nc1ccn([C@@H]2O[C@H](CO)C[C@@H]2F)c(=O)n1	MTT	5 µg/mL
CCOP(=O)(N[C@@H](C)C(=O)OC)OC[C@H]1O[C@@H](n2cc(C)c(=O)[nH]c2=O)C[C@@H]1N=[N+]=[N-]	-	200 µM
Nc1ccn([C@H]2CC[C@@H](CO)O2)c(=O)n1	MTT	0.5 µg/mL
Cc1cn([C@H]2C[C@H](N=[N+]=[N-])[C@@H](COP(=O)(Oc3ccc(C(F)(F)F)cc3)Oc3ccc(C(F)(F)F)cc3)O2)c(=O)[nH]c1=O	-	100 µM
O=c1ccn([C@H]2CC[C@@H](CO)O2)c(=O)[nH]1	MTT	500 µg/mL
CSc1ccc(OP(=O)(OC[C@H]2O[C@@H](n3cc(C)c(=O)[nH]c3=O)C[C@@H]2N=[N+]=[N-])Oc2ccc(SC)cc2)cc1	-	200 µM

Repeating the first 2 entries:

{"structure": "COC(=O)[C@H](C)NP(=O)(OC[C@H]1O[C@@H](n2cc(C)c(=O)[nH]c2=O)C[C@@H]1N=[N+]=[N-])OCC(Cl)(Cl)Cl", "value": "50 µM"}
{"structure": "O=C(O)P(=O)(O)O", "read by": "MTT", "value": "1000 µg/mL"}